Test: general procedure: solution-phase peptide synthesis
[1] = late stage modification step, hydrofluoride (after HF deprotection)
[2] = late stage modification step, hydrofluoride
[3] = coupling step, hydrofluoride (after HF deprotection)

Row | Substance | step yield [1] [%] | step yield [2] [%] | other results
1 | N60 -[((1S)-1-Carboxy-2-phenyl-ethyl)aminocarbonyl]-N^G -(4-methyl-phenylsulphonyl)-S-arginyl-S-valinyl-S-phenylalanine | 78 |  | 
2 | (2S )-2-{N60 -[((1S )-1-Carboxy-2-phenyl-ethyl)aminocarbonyl]-N^G -(4-methyl-phenylsulphonyl)-S-arginyl-S-valinyl}amino-3-phenyl-propan-1-ol | 85 |  | 
3 | (2 S)-2-{Nα -[((2S)-1-Hydroxy-3-phenyl-prop-2-yl)aminocarbonyl]-S-arginyl-S-valinyl}amino-3-phenyl-propan-1-ol hydrofluoride |  | 61 | 
4 | (2S)-2-{Nα -[((1S)-1-Methoxycarbonyl-2-phenyl-ethyl)aminocarbonyl]-N^G -(4-methyl-phenylsulphonyl)-S-arginyl-S-valinyl}amino-3-phenyl-propan-1-al |  |  | step yield (late stage modification step, hydrofluoride (after HF deprotection), run 1): 36%; step yield (late stage modification step, hydrofluoride (after HF deprotection), run 2): 30%
5 | (2S)-2-{Nα -[((2S)-1-Hydroxy-3-phenyl-prop-2-yl)aminocarbonyl]-N^G -(4-methyl-phenylsulphonyl)-S-arginyl-S-valinyl}-amino-3-phenyl-propan-1-ol | 57 |  | 
6 | (2S)-2-{Nα -[((1S)-1-Carboxy-2-phenyl-ethyl)aminocarbonyl]-S-arginyl-S-valinyl}amino- 3-phenyl-propan-1-ol hydrofluoride |  | 94 | 
7 | (2S)-2-{Nα -[((1S)-1-Methoxycarbonyl-2-phenyl-ethyl)aminocarbonyl]-S-arginyl-S-valinyl}amino-3-phenyl-propan-1-ol hydrofluoride |  | 82 | 
8 | (2S )-2-{Nα -[((1S )-1-Methoxycarbonyl-2 -phenyl-ethyl)aminocarbonyl]-N^G -(4-methoxy-phenylsulphonyl)-S-arginyl-S-valinyl}amino-3-phenyl-propan-1-o |  |  | step yield [3]: 88%
9 | N60 -[((1S)-1-Methoxycarbonyl-2-phenyl-ethyl)aminocarbonyl]-N^G -(4-methyl-phenylsulphonyl)-S-arginyl-S-valinyl-S-phenylalanine methyl ester |  |  | step yield [3]: 85%
10 | Nα -[((1S)- 1-Methoxycarbonyl-2-phenyl-ethyl)aminocarbonyl]-S-arginyl-S-valinyl-S-phenylalanine methyl ester hydrofluoride |  | 79 | 
